Anti-infective test results gathered from many reports (values: NIAID ChemDB through PubChem).

An empty or dashed field is not shown.

structure	read by	protein	organism	kind	read-out	strain	dose	result
Nc1ccc(Nc2ccc([As]=O)cc2)nc1	-	-	Mycobacterium tuberculosis	culture	MIC	H37Rv	-	>100 µg/mL
c1ccc(N2CCN(c3cncc(-c4ccc5ccccc5c4)n3)CC2)cc1	-	UL97 kinase	Cytomegalovirus	target	IC50	-	-	<10 µM
O=c1oc2ccccc2c2c1Sc1ccccc1N2	BACTEC	-	Mycobacterium tuberculosis	culture	MIC bound	H37Rv	-	>12.5 µg/mL
Fc1ccc(N2CCCCC2)c(NC(=S)c2ccncc2)c1	kinase activity	MST4	-	host protein	inhibition	-	10 µM	5.1%
COc1ccc(Cl)cc1-c1cncc(N2CCN(c3ccccc3)CC2)n1	-	UL97 kinase	Cytomegalovirus	target	IC50	-	-	<100 µM
CC(C)Cn1c[n+](Cc2ccc([N+](=O)[O-])cc2)c2c1C(=O)c1ccccc1C2=O	resazurin	-	Mycobacterium tuberculosis	culture	inhibition	H37Rv	6.25 µg/mL	100%
CCN(CC)c1cccc(CCNS(C)(=O)=O)c1	-	-	Mycobacterium tuberculosis	culture	MIC	H37Rv	-	>100 µg/mL
Nc1c(-c2c(Cl)cccc2Cl)[n+]([O-])c2ccccc2[n+]1[O-]	-	-	Mycobacterium tuberculosis	culture	MIC	TAC-R	-	6.3 µg/mL
CN(C)c1ccc(-c2cncc(N3CCN(c4ccc(Cl)c(Cl)c4)CC3)n2)cc1	-	UL97 kinase	Cytomegalovirus	target	inhibition	-	10 µM	>15%
CC(=O)c1ccc(I)cc1	-	-	Mycobacterium tuberculosis	culture	MIC	H37Rv	-	>100 µg/mL
CCC1(CC)OC(=O)C(=O)N1N(C)C	BACTEC	-	Mycobacterium tuberculosis	culture	inhibition	H37Rv	12.5 µg/mL	9%
COc1ccc(N2CCN(c3cncc(-c4ccc(C#N)cc4)n3)CC2)cc1	-	UL97 kinase	Cytomegalovirus	target	inhibition	-	1 µM	<50%
O=C(Nc1ccccc1)c1ccccc1O	-	-	Mycobacterium tuberculosis	culture	MIC	H37Rv	-	25 µg/mL
Fc1ccc(-c2cncc(N3CCN(c4ccc(F)cc4)CC3)n2)cc1	-	UL97 kinase	Cytomegalovirus	target	inhibition	-	10 µM	>15%
CCC(C(=O)O)c1ccc(N)cc1	-	-	Mycobacterium tuberculosis	culture	MIC	H37Rv	-	>100 µg/mL
COC(=O)C1=NC(=N)N=C(C(=O)OC)C12C(=O)Cc1ccccc12	BACTEC	-	Mycobacterium tuberculosis	culture	MIC bound	H37Rv	-	>12.5 µg/mL
CCCCCCCCCCCc1nc2ccccc2[nH]1	-	-	Mycobacterium tuberculosis	culture	MIC	H37Rv	-	>100 µg/mL
CCCCCC[N+]1([O-])CC[N+]([O-])(CCCCCC)CC1	BACTEC	-	Mycobacterium tuberculosis	culture	inhibition	H37Rv	12.5 µg/mL	0%
CCN(CC)CCCNc1ccnc(N)n1.Cl	-	-	Mycobacterium tuberculosis	culture	MIC	H37Rv	-	>100 µg/mL
COc1cc(C2c3cc4c(cc3C3=NN(c5ccccc5)CC3C2C(=O)O)OCO4)cc(OC)c1OC	BACTEC	-	Mycobacterium tuberculosis	culture	inhibition	H37Rv	6.25 µg/mL	0%
CSc1ccc(-c2cncc(N3CCN(c4ccc(F)cc4)CC3)n2)cc1	-	UL97 kinase	Cytomegalovirus	target	inhibition	-	1 µM	<50%

Again, the opening 3 rows:

| structure | read by | protein | organism | kind | read-out | strain | dose | result |
|---|---|---|---|---|---|---|---|---|
| Nc1ccc(Nc2ccc([As]=O)cc2)nc1 | - | - | Mycobacterium tuberculosis | culture | MIC | H37Rv | - | >100 µg/mL |
| c1ccc(N2CCN(c3cncc(-c4ccc5ccccc5c4)n3)CC2)cc1 | - | UL97 kinase | Cytomegalovirus | target | IC50 | - | - | <10 µM |
| O=c1oc2ccccc2c2c1Sc1ccccc1N2 | BACTEC | - | Mycobacterium tuberculosis | culture | MIC bound | H37Rv | - | >12.5 µg/mL |

MIC bound: limit read from a one-dose screen. Inhibition is in % at the dose shown (toxicity tests: loss of growth or viability). Neighbouring rows are from separate reports. ICn: concentration for n% inhibition.